Patent EP4563146A1 (IRBM S.P.A., priority 2023, dated 2025)

Legend:
ZIKV replicon = settings: read-out: ZIKA Cell_Nanoluc; Vero cells with stable ZIKV replicon, 72 h, Nano-Glo readout
[1] = molecular target: DEN2V NS2B-G4SG4-NS3 serine protease (Dengue virus type 2, UniProt Q91H74); settings: read-out: Dengue 2 - NS3 protease

`COc1cccc(C23COC(C2)C3C(=O)Nc2cc(NC(=O)[N-]c3c[n+](Cc4ccccn4)no3)cc(C(F)(F)F)c2)c1` (centres unmarked) gave an EC50 (ZIKV replicon) of 1 to 20 µM and an IC50 [1] of 100 to 1000 nM.
